## Potato spindle tuber viroid, loop 15: variant abundance in plants

PSTVd intermediate strain, loop 15: wild type GGAAACCGCUACUAC, pool pattern GGAAACCGNNNNNNC; upper and lower strand joined, each 5' to 3', the first 7 letters being the upper strand, closing pairs included.

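A pool of all variants was put on leaves of three Nicotiana benthamiana plants. Samples came from the inoculated region at 5 days, the leaf margin at 10 and upper systemic leaves at 12.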

Numbers give reads per thousand; 0 = not seen among the reads, higher = more abundant. Each value is the mean of three plants. "Pool" is the share in the plasmid pool used as inoculum, on the same scale. The inoculated region was read from the minus strand, the other sites from the plus strand. For reference, wild type rose from 33.9 per thousand in the pool to 202, 200, 159 (inoculated region), 724, 746, 710 (leaf margin) and 856, 883, 880 (systemic leaves). The authors trace changes outside the varied positions to PCR and sequencing errors or to mutation in the plant; presence does not show that a variant is infectious alone. Samples held 43,870 to 66,106 reads, so the smallest values rest on one or two reads.

sequence	pool	inoculated region	leaf margin	systemic leaves
GGAAACCGCUUCUAC	0.768	0.709	0.388	0.293
GGAAACCGGUGCCGC	0.272	0.0868	0.0141	0
GGAAACCGAAAUUGC	0.256	0.316	0.169	0.0161
GGAAACCGAUUGCUC	0.160	0.0828	0.0141	0
GGAAACCGUAGACAC	0.176	0.0911	0.0141	0.00537
GGAAACCGGCCUCUC	0.176	0.129	0.0275	0
GGAAACCGUAAUGCC	0.224	0.0994	0	0
GGAAACCGCCCAUCC	0.144	0.0909	0.0121	0
GGAAACCGCGGUCAC	0.160	0.118	0.00668	0.00537
GGAAACCGGGGGAUC	0.288	0.0615	0	0.00537
GGAAACCGUGGCACC	0.240	0.0723	0.0134	0
GGAAACCGAUGGGCC	0.160	0.114	0.0134	0
GGAAACCGUCCUACC	0.176	0.110	0.0108	0
GGAAACCGGCCGCGC	0.400	0.0860	0.0121	0
GGAAACCGUCUUGAC	0.256	0.0661	0	0
GGAAACCGCAGAGUC	0.160	0.222	0	0.00537
GGAAACCGUUCCUGC	0.176	0.333	0.0726	0.0268
GGAAACCGGUGGAAC	0.176	0.0624	0.00742	0
GGAAACCGGAGCCAC	0.336	0.0651	0.00668	0
GGAAACCGCAUUGAC	0.112	0.0930	0.00539	0.00537
GGAAACCGCCCCCGC	0.256	0.0905	0.0277	0.00537
GGAAACCGUGCCUAC	0.160	0.293	0.134	0.0585
GGAAACCGCUUGAAC	0.272	0.0883	0.0134	0.0130
GGAAACCGGCCAUUC	0.176	0.0931	0	0
GGAAACCGUAGCCAC	0.240	0.0751	0	0.00760
GGAAACCGUUCUCUC	0.192	0.109	0.0121	0
GGAAACCGCGUCCGC	0.272	0.102	0.00668	0
GGAAACCGUGAACUC	0.256	0.367	0.110	0.0161
GGAAACCGAAAUAAC	0.336	0.297	0.120	0.0215
GGAAACCGCCGUAGC	0.160	0.100	0.0141	0
GGAAACCGCGCACUC	0.320	0.0939	0.0148	0.00537
GGAAACCGGUGGGUC	0.240	0.108	0.0241	0
GGAAACCGUACAAAC	0.144	0.0497	0.0208	0.00537
GGAAACCGCUAGCCC	0.256	0.0814	0	0
GGAAACCGUGAACGC	0.304	0.0859	0.0134	0
GGAAACCGGGACACC	0.176	0.114	0	0
GGAAACCGCGUCUAC	0.240	0.362	0.115	0.0107
GGAAACCGAACCGUC	0.240	0.109	0	0.00537
GGAAACCGCCUGCUC	0.128	0.105	0.0134	0
GGAAACCGCCCAGCC	0.224	0.123	0.0195	0
GGAAACCGUUGAUGC	0.160	0.0922	0.0121	0
GGAAACCGGCACGGC	0.208	0.0766	0.0141	0
GGAAACCGCUCGAAC	0.272	0.300	0.109	0.0606
GGAAACCGACUAUGC	0.224	0.0958	0	0
GGAAACCGUAAUUGC	0.176	0.344	0.0867	0.0610
GGAAACCGUAGGGGC	0.224	0.0633	0.0128	0
GGAAACCGGCCAUCC	0.160	0.0951	0.00539	0
GGAAACCGGCGAGGC	0.208	0.105	0.00668	0
GGAAACCGACGGAAC	0.160	0.253	0.122	0.0237
GGAAACCGCGGCAUC	0.272	0.107	0	0
GGAAACCGUACAGCC	0.192	0.122	0.00668	0
GGAAACCGAGUCUCC	0.208	0.116	0.00668	0.00537
GGAAACCGCAGUACC	0.224	0.0904	0	0
GGAAACCGCAUCUUC	0.208	0.0859	0.0134	0
GGAAACCGUAUCAGC	0.320	0.100	0.00668	0
GGAAACCGCCCCUCC	0.336	0.0639	0	0
GGAAACCGCUAGUUC	0.384	0.333	0.0793	0.0461
GGAAACCGGUCGCGC	0.240	0.122	0.0141	0.00504
GGAAACCGCAAAAGC	0.224	0.0959	0.0141	0
GGAAACCGGAAUGGC	0.288	0.0824	0	0
GGAAACCGCCGCCGC	0.224	0.133	0.0175	0.0104
GGAAACCGUGACGCC	0.272	0.0743	0.0249	0

The last 3 entries again:

* GGAAACCGGAAUGGC (pool 0.288): inoculated region 0.0824; leaf margin 0; systemic leaves 0
* GGAAACCGCCGCCGC (pool 0.224): inoculated region 0.133; leaf margin 0.0175; systemic leaves 0.0104
* GGAAACCGUGACGCC (pool 0.272): inoculated region 0.0743; leaf margin 0.0249; systemic leaves 0

From the data files of Wu et al. 2024, doi:10.1371/journal.ppat.1012142.